Drawing on PubChem BioAssay AID488895 (Broad Institute, 2010), this text covers inhibition for 100 molecules.

The entries are a selection whose mix differs from that of the whole data set. Activity calls are given as the source filed them.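 Rule for the calls: active = mean replicate inhibition at least 50% and at least half of replicates individually reaching 50%; inconclusive = only one of the two criteria met; inactive = neither criterion met.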

The nature of the assay: E. coli Tat export inhibitors, primary screen, MC4100, TorA-mCherry reporter, fluorescence, single point (AID 488895).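 Note: exported cargo escapes ClpAP degradation while cytoplasmic cargo is degraded and loses fluorescence; 0% = median of neutral control wells and 100% = median of NaSCN control wells.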 The note with it: at 10 µM, stronger effect = higher value.
For orientation: inhibition means the change of the read-out against control, counted positive when it falls. Take `O=C(/C=C/c1ccccc1)OC1CN2CCC1CC2` (stereo not given): the inhibition was inactive: 18.6%. For `Cc1ccc(C(=O)OC2CN3CCC2CC3)cc1` (stereo not given) the value was inactive: 2.55%; for `CC1CCC(C(C)C)C(OP(=O)(Nc2ccccn2)c2ccccc2)C1` (stereo not given), inactive: 13.4%. For `Cc1nn(-c2ccccc2)c2c1P(=O)(N1CCOCC1)N(C)C(c1ccccc1)=N2` (stereo not given) the value was inactive: -3.07%; for `Nc1cccc([As](=O)(O)c2ccccc2)c1`, inactive: -1.75%. For `O=[As](O)(c1cccs1)c1cccs1` the value was inactive: -3.53%; for `Cc1ccc(OCC(=O)OC2CN3CCC2CC3)cc1` (stereo not given), inactive: -6.04%. As for `NS(=O)(=O)c1cccc(NC(=O)COC(=O)C(O)(c2ccccc2)c2ccccc2)c1`, the inhibition is inactive: 6.37%. For `O=P1(Nc2ccc(Br)cn2)COc2ccccc2OC1` the value was inactive: 0.0286%. For `O=P1(Nc2ncccn2)COc2ccccc2OC1` the value was inactive: -8.62%; for `CC(C)(C)C(=O)NC(Sc1ncccn1)C(Cl)(Cl)Cl` (stereo not given), inactive: -6.22%; for `Clc1n[nH]nc1-c1nn[nH][15n]1`, inactive: -5.89%. For the molecule `CCOP(=O)(NC(=NC(C)c1ccccc1)NC(C)c1ccccc1)OCC` (stereo not given), the inhibition was inactive: 1.29%. For `CCC1=CC2Cc3nc4ccc(Cl)cc4c(N)c3C(C1)C2` (stereo not given) the value was inactive: 7.77%. For `O=P1(Nc2ccccn2)COc2ccccc2OC1` the value was inactive: 4.76%; for `CCOP(=O)(Nc1ccc(C)cn1)OCC`, inactive: 4.51%; for `CN(C(=O)Cc1ccc(Cl)c(Cl)c1)[C@@H]1CCCC[C@H]1N1CCCC1`, inactive: -3.64%. For `CC(C)/C=N\N=C(\N)N[N+](=O)[O-]` the value was inactive: 8.62%; for `CC1(CBr)Cn2c(nc3ccccc3c2=O)S1` (stereo not given), inactive: 0.389%. With `COc1ccccc1CNC(=O)COC(=O)C(O)(c1ccccc1)c1ccccc1`, the inhibition is inactive: -2.54%. For `c1nnnn1CCn1cnnn1` the value was inactive: 12.4%.

Turning to `O=P(Nc1nccs1)(c1ccccc1)c1ccccc1`, the inhibition is inactive: -2.49%. For `CC(C)C(=O)NC(Sc1ccccc1)C(Cl)(Cl)Cl` (stereo not given) the value was inactive: 10.1%; for `C[C@H]1OP(=O)(Oc2ccccc2)[C@H](O)[C@H](O)[C@H]1N=[N+]=[N-]` (stereo not given in full), inactive: -4.98%.

For the molecule `O=P(Nc1nc2ccccc2s1)(c1ccccc1)c1ccccc1`, the inhibition is inactive: 4.03%. For `CN(C)C1(CNC(=O)c2ccc(Cl)c(S(N)(=O)=O)c2)CCCCC1` the value was inactive: 8.88%. For `O=P(Nc1ccccn1)(c1ccc(Br)cc1)c1ccc(Br)cc1` the value was inactive: 3.42%.

As to `COc1ccc(N)c([N+](=O)[O-])c1[N+](=O)[O-]`, the inhibition is inactive: -2.69%. As to `O=C(OC1CN2CCC1CC2)c1cccc(Cl)c1` (stereo not given), the inhibition was inactive: -4.2%. Turning to `C(Cc1nn[nH]n1)Cc1nn[nH]n1`, the inhibition is inactive: -8.37%. For `Nc1ccc([As](=O)(O)c2ccc([N+](=O)[O-])cc2)cc1` the value was inactive: 7.59%; for `O=[As](O)(c1ccccc1)c1ccc(O)cc1`, inactive: 1.15%; for `O=[N+]([O-])c1ncn(CCn2cnc([N+](=O)[O-])n2)n1`, inactive: -4.56%. For `CC(=O)NC(SC(=S)N(C)C)C(Cl)(Cl)Cl` (stereo not given) the value was inactive: -14.3%; for `O=[N+]([O-])c1ccc(O)c(/C=N/Nc2ccc([N+](=O)[O-])cc2[N+](=O)[O-])c1`, inactive: -1%. For `O=P1(N(CCCl)CCCl)OCCC2CCCCN21` (stereo not given) the value was inactive: 8.96%.

For `Cc1ccc(NP(=O)(Oc2cccc(C)c2)Oc2cccc(C)c2)nc1`, the inhibition is inactive: -6.7%.

In the case of `c1ccc(-c2nn[nH]n2)c(-c2nn[nH]n2)c1`, the inhibition is inactive: -6.5%. For `O=C(NC1CCS(=O)(=O)C1)NP(=S)(Oc1ccccc1)Oc1ccccc1` (stereo not given) the value was inactive: 0.201%; for `CCNC(=S)/N=C(\N)N[N+](=O)[O-]`, inactive: -7.96%.

For `O=c1c2cc([N+](=O)[O-])ccc2[nH]c2c([N+](=O)[O-])cc([N+](=O)[O-])cc12`, the inhibition is inactive: -1.27%.

Regarding `CN(C)C(=O)Oc1noc2ccccc12`, the inhibition was inactive: 0.751%.

In the case of `CC(NC(=O)COC(=O)C(O)(c1ccccc1)c1ccccc1)c1ccccc1` (stereo not given), the inhibition was inactive: 10.3%. For `Cc1ccccc1OP(=O)(Nc1ccccn1)Oc1ccccc1C` the value was inactive: 17.4%; for `CCC(=O)N1C2C3N(C(=O)CC)C1C1N(C(=O)CC)C(C(N1C(=O)CC)N3C(=O)CC)N2C(=O)CC`, inactive: 0.618%; for `O=C(OC1CN2CCC1CC2)c1ccccc1` (stereo not given), inactive: 7.11%. For `Cc1ccc(OP(=O)(Nc2ccccn2)Oc2ccc(C)cc2)cc1` the value was inactive: 0.649%.

Turning to `CC(=O)NC(SC(=S)N(CC(C)C)CC(C)C)C(Cl)(Cl)Cl` (stereo not given), the inhibition is inactive: -9.74%. Regarding `COC(=O)c1cc2c(s1)N=C(c1ccccc1)N(C)P2(=O)N1CCOCC1` (stereo not given), the inhibition was inactive: 1.34%. `CC(C)(C)C(=O)NC(Sc1ccccc1)C(Cl)(Cl)Cl` (stereo not given): the inhibition is inactive: -1.73%. For `CCc1cc(O)c([N+](=O)[O-])c(C)c1[N+](=O)[O-]` the value was inactive: 8.14%.

As for `CCOc1ccc(C2=NCC(CBr)S2)cc1` (stereo not given), the inhibition is inactive: -4%.

For the molecule `O=P1(Nc2nc3ccc(Cl)cc3s2)COc2ccccc2O1` (stereo not given), the inhibition is inactive: 2.27%. For `CC(=O)Nc1ccc(Oc2c([N+](=O)[O-])cc([N+](=O)[O-])cc2[N+](=O)[O-])cc1` the value was inactive: 3.17%; for `CC(=O)Nc1ccc([As](=O)(O)O)c(O)c1`, inactive: -0.454%. For `C[C@H]1OP(=O)(Oc2ccccc2)C[C@@H]2O[C@@H]21` (stereo not given in full) the value was inactive: -10.2%; for `C[C@@H]1C=CCP(=O)(Oc2ccccc2)O1` (stereo not given in full), inactive: -0.0297%; for `Cc1ccccc1CN(C)C(=O)COC(=O)C(O)(c1ccccc1)c1ccccc1`, inactive: -1.68%. For `COC(=O)C1(C)COP(=O)(NCc2ccccc2)OC1` (stereo not given) the value was inactive: 1.53%; for `CC(=O)c1ccc(N2CC2c2ccncc2)cc1` (stereo not given), inactive: -1.89%.

For `N#C/C(=C\c1ccc(N(CCBr)CCBr)cc1)C(N)=O`, the inhibition was inactive: -4.8%.

For `CN1CCCC(OC(=O)C(c2ccccc2)c2ccccc2)C1` (stereo not given), the inhibition was inactive: 4.64%. For `Clc1ccc(Cl)c(NC2=NCC(CBr)S2)c1` (stereo not given) the value was inactive: 2.72%; for `COc1ccccc1OP(=O)(Nc1ccc(C)cn1)Oc1ccccc1OC`, inactive: -4.16%. For `Cc1ccc(N/C(=N/P(=O)(N2CCOCC2)N2CCOCC2)N2CCOCC2)cc1` the value was inactive: 19.7%; for `CN(C(=O)Cc1ccc(Cl)c(Cl)c1)[C@H]1CCCC[C@H]1N1CCCC1`, inactive: -0.531%. For `NC(=O)c1cc([N+](=O)[O-])cc([N+](=O)[O-])c1N` the value was inactive: 2.5%.

On to `O=C(NC(Sc1ccncn1)C(Cl)(Cl)Cl)c1ccccc1` (stereo not given), for which the inhibition is inactive: 3.05%. For `Oc1ccccc1CNc1ccccn1` the value was inactive: 2.02%.

With `Nc1cc(N)c2nonc2c1[N+](=O)[O-]`, the inhibition is inactive: 3.26%. For `CC(C)CC(=O)NC(Sc1ccc(Cl)cc1)C(Cl)(Cl)Cl` (stereo not given) the value was inactive: 3.14%; for `CN(C(=O)Cc1ccc(Cl)c(Cl)c1)[C@H]1CCCC[C@@H]1N1CCCC1`, inactive: 8.77%; for `Cc1ccc(NP(=O)(Oc2ccccc2F)Oc2ccccc2F)nc1`, inactive: -4.37%. Regarding `Cc1cc(SC(NC(=O)c2ccc(F)cc2)C(Cl)(Cl)Cl)ncn1` (stereo not given), the inhibition was inactive: -1.34%. For `CCOP(=O)(Nc1ccccc1)OCC` the value was inactive: -9.79%; for `O=P(Nc1nc2ccc(Cl)cc2s1)(c1ccccc1)c1ccccc1`, inactive: 3.49%. As to `CCCC1OP(N)(=O)OCC1CC` (stereo not given), the inhibition is inactive: -4.06%.

With `CC(=O)Nc1ccc([As](=O)(O)O)cc1`, the inhibition is inactive: -5.36%. For `O=C(O)c1ccccc1[As](=O)(O)O` the value was inactive: 7.99%; for `Nc1cccc2ccc([As](=O)(O)O)cc12`, inactive: -8.02%.

For `CCN(N=Nc1nonc1N)c1nonc1N`, the inhibition was inactive: -2.43%. For `O=C(Nc1cc([As](=O)(O)O)ccc1O)c1ccccc1` the value was inactive: -4.69%.

`O=P1(N(CCCl)CCCl)OCCCS1` (stereo not given): the inhibition is inactive: 3.53%. For `O=C(O)CNc1ccc([As](=O)(O)O)cc1` the value was inactive: -6.18%. With `COC(=O)C1(C)COP(=O)(Nc2ccccc2)OC1` (stereo not given), the inhibition is inactive: -3.38%. For `O=[N+]([O-])c1cccc(NC2=NCC(CBr)S2)c1` (stereo not given) the value was inactive: 4.34%; for `O=[N+]([O-])c1ncn(CCn2ncnc2[N+](=O)[O-])n1`, inactive: -6.79%; for `CC(C)(C)C(=O)NC(Sc1ccncn1)C(Cl)(Cl)Cl` (stereo not given), inactive: -0.815%. For `O=[N+]([O-])c1cc([N+](=O)[O-])c(CCNc2ccccc2)c([N+](=O)[O-])c1` the value was inactive: -2.49%; for `CCc1nc2c(n1)c1c(non1O)c1c2no[n+]1[O-]`, inactive: -3.85%; for `Cc1ccc(NP(=O)(Oc2ccccc2)Oc2ccccc2)nc1`, inactive: 2.41%. For `CC(=O)N1C2C3N(C(C)=O)C1C1N(C(C)=O)C(C(N1C(C)=O)N3C(C)=O)N2C(C)=O` the value was inactive: -2.51%. As to `O=[N+]([O-])c1cccc2n[nH]nc12`, the inhibition is inactive: -8.39%. For `COc1ccc(C2=NCC(CBr)S2)cc1` (stereo not given) the value was inactive: -0.41%; for `CC1CCN(C(=O)Oc2c(Cl)cc(Cl)c3cccnc23)CC1`, inactive: 5.72%.

As for `CN(C)C(=O)OCCc1n(C)cc[n+]1C`, the inhibition is inactive: 5.88%. For `CC(C)=N/N=C(\N)N[N+](=O)[O-]` the value was inactive: -6.79%. For `CCN(/C(=N/P(=O)(N1CCOCC1)N1CCOCC1)N1CCOCC1)c1ccc(OC)cc1` the value was inactive: -10.2%; for `C[N+]1=C2C=CC=CC=C2SC12C([N+](=O)[O-])=CC([N+](=O)[O-])=C[C-]2[N+](=O)[O-]` (stereo not given), inactive: -2.82%. For `Nc1ccc([As](=O)(O)c2ccc(N)cc2)cc1` the value was inactive: 1.23%.
